Data on two compounds can be found in US20240279279A1, “PROTEIN-DERIVED PEPTIDE FOR IMPROVING IMMUNITY AGAINST 2019 NOVEL CORONAVIRUS (2019-nCoV) AND USE THEREOF” (ZHEJIANG A&F UNIVERSITY, priority 2023, published 2024).

Several values for one entry are separate records, joined by “and”; a condition that tells them apart may be missing. Identical values can stand only once. Like-named read-outs stand apart in the source and are kept apart here.

The target in data set [1] is T1, 2019-nCoV M-pro (Severe acute respiratory syndrome coronavirus 2, UniProt P0DTD1).
T1 construct: 2019 novel coronavirus main protease (2019-nCoV M-pro)
The data set can be described thus: 2019-nCoV M-pro inhibitory activity, fluorescent decapeptide substrate. The note with it: for Inhibition rate: peptide concentration not printed (1.0-20.0 μM tested), 30° C. In kind it is biochemical.

In data set [2] the target is T1, 2019-nCoV M-pro. Kind of data set: 2019-nCoV M-pro inhibition mode experiment (Km, Vmax trends). Format: biochemical.
Data set [3] is described as follows: thermal stability by RP-HPLC. As to conditions: 100 μmol/L in water, 20, 40, 60, 80, 100° C. for 2 h. Format: physicochemical. The procedure: WWNLN (obtained by solid-phase synthesis from Jiangsu Jitai Peptide Technology Co., Ltd.) was diluted with distilled water into a 100 μmol/L solution, and solution that had not been treated at different temperatures was used as a blank control. The diluted WWNLN sample solution was placed in water bath conditions of 20, 40, 60, 80, and 100° C. for 2 h. The blank control and WWNLN sample solutions treated at different temperatures were injected into the RP-HPLC device for analysis through a filter membrane with a pore size of 0.22 μm. Detection wavelength was: 220 nm; column temperature was: 25° C. Mobile phase A was: lv/v % TFA+99 v/v % acetonitrile; mobile phase B was: lv/v % TFA+99 v/v % water. Elution conditions: 0 min to 25 min, 72 v/v % to 47 v/v % B (gradient elution); 25 min, 47 v/v % B (isocratic elution); 25 min to 25.1 min, 47 v/v % to 0 v/v % B (gradient elution), the column was eluted at a flow rate of 1.0 mL/min. Whether WWNLN degraded at different temperatures were determined based on the peak area and peak elution time of the liquid phase spectrum.

A short description of data set [4]: acid-base stability by RP-HPLC. Format: physicochemical. The note with it: 100 μmol/L, pH 2, 4, 6, 8, 10, 37° C. for 2 h. The procedure:
WWNLN (obtained by solid-phase synthesis from Jiangsu Jitai Peptide Technology Co., Ltd.) was diluted with distilled water into a 100 μmol/L solution, and solution that had not been treated at different pH values was used as a blank control. The pH value of the diluted WWNLN sample solution was adjusted to 2, 4, 6, 8, and 10, respectively using 1 mol/L hydrochloric acid and 1 mol/L sodium hydroxide. The blank control and WWNLN sample solutions treated with different pH levels were placed in a 37° C. water bath for 2 h. The blank control and WWNLN solutions treated at different pH values were injected into the RP-HPLC device for analysis through a filter membrane with a pore size of 0.22 m. Detection wavelength was: 220 nm; column temperature was: 25° C. Mobile phase A was: lv/v % TFA+99 v/v % acetonitrile; mobile phase B was: lv/v % TFA+99 v/v % water. Elution conditions: 0 min to 25 min, 72 v/v % to 47 v/v % B (gradient elution); 25 min, 47 v/v % B (isocratic elution); and 25 min to 25.1 min, 47 v/v % to 0 v/v % B (gradient elution), the column was eluted at a flow rate of 1.0 mL/min. Whether WWNLN degraded at different pH values was determined based on the peak area and peak elution time of the liquid phase spectrum.

A short description of data set [5]: simulated gastrointestinal digestion stability (pepsin, trypsin) by RP-HPLC. In kind it is in vitro ADME. The procedure: WWNLN (obtained by solid-phase synthesis from Jiangsu Jitai Peptide Technology Co., Ltd.) was diluted into a 100 μmol/L solution with hydrochloric acid with a pH value of 2. 0.016 g of pepsin (Beijing Solarbio Science & Technology Co., Ltd., P8390, pepsin activity 1 g: 3,000 U) was added to 1 mL of the diluted WWNLN sample solution, allowed to stand in a 37° C. water bath for 2 h, and samples were collected every 1 h and placed at 4° C. for later use. After 2 h, the WWNLN sample solution was taken out, and 1 mol/L sodium hydroxide was added to adjust the pH value of the WWNLN sample solution after pepsin enzymatic hydrolysis to 7, and 0.010 g trypsin (Beijing Solarbio Science & Technology Co., Ltd., T8150, pepsin activity 1 g: 250 U) was added, allowed to stand in a 37° C. water bath for 2 h, and samples were collected every 1 h and placed at 4° C. for later use. The WWNLN sample solution was injected into the RP-HPLC device for analysis through a filter membrane with a pore size of 0.22 μm. The elution conditions were the same as those in Example 4, part (1). Whether WWNLN was degraded after being digested by pepsin and trypsin was determined based on the peak area and peak elution time of the liquid phase spectrum.

The nature of data set [6]: Vero-E6 cytotoxicity, MTT. Format: cell-based. The note with it: Vero-E6 cells, read-out: Cell viability. The method, then: (§1) The solutions (0, 25, 50, 100, 200, 400 μM; DMEM medium, Gibco Company) with different concentrations of WWNLN (obtained by solid-phase synthesis from Jiangsu Jitai Peptide Technology Co., Ltd.) and Vero-E6 cells (10^5 cells/mL) were added in a 96-well plate, and incubated statically at 37° C. for 24 h in an incubator; the 96-well plate was taken out from the incubator, added with MTT solution to each well at a final concentration of 0.5 mg/mL, where the MTT solution was prepared using phosphate buffer (NaCl: 137 mM, KCl: 2.7 mM, Na2HPO4: 10 mM, KH2PO4: 2 mM, pH=7.2-7.4). The cells were cultured statically at 37° C. for 4 h in a CO2 incubator (CO2 concentration: 5 v/v %). After centrifugation at 1,000 rpm for 5 min, the supernatant was removed, 150 μL of DMSO was added to each well, and placed on a shaker at 70 rpm for 10 min. The absorbance in each well was read using a microplate reader at a wavelength of 490 nm, and the cell viability was calculated using Graphpad Prism 8.0.1. In this example, all operations were conducted in the dark after adding the MTT solution.

The next data set has as its system Vero-E6 cells. The data set can be described thus: Vero-E6 cytotoxicity, MTT. The note with it: 0 μM to 400 μM, 24 h. Format: cell-based. The method, then:
as §1

The mark [7] stands for this setting: inhibitor 20 μM, Vmax decreased.

With `CC(C)C[C@H](NC(=O)[C@H](CC(N)=O)NC(=O)[C@H](Cc1c[nH]c2ccccc12)NC(=O)[C@@H](N)Cc1c[nH]c2ccccc12)C(=O)N[C@@H](CC(N)=O)C(=O)O` [WWNLN, Trp-Trp-Asn-Leu-Asn], the IC50 (in general, the point on the concentration scale where inhibition reaches its midpoint) at 2019-nCoV M-pro [1] (20 μM substrate, 2 nM M-pro, nonlinear fitting) came out at 6.69 µM. Further, the Inhibition rate at 2019-nCoV M-pro [1] (20 μM substrate, 2 nM M-pro) worked out at 74.13%. The Inhibition mode entry is “competitive inhibition and 0-10 μM: competitive inhibition” at 2019-nCoV M-pro [2]; “non-competitive inhibition and 20 μM: non-competitive inhibition” at 2019-nCoV M-pro [2] (setting [7]). For the same compound, the “thermal stability (degradation by peak area and elution time)” value in data set [3] is on record as “had not been degraded”. For the same compound, in data set [4], the “acid-base stability (degradation by peak area and elution time)” value is “had not been significantly degraded”. In addition, the “degradation after pepsin digestion” value in data set [5] (pepsin pH 2, 37° C., 1 h and 2 h) is “slightly degraded”. Besides, the remaining at 2 h, 100 μmol/L in data set [5] (then trypsin (simulated gastrointestinal digestion), digestion with pepsin and trypsin for 2 h, peak area comparison, read-out: retention rate after digestion) is 87.5%. Besides, in data set [6] (Vero-E6, 25 μM), the viability – broadly, a read-out of living cells in per cent, often relative to untreated cells – at 24 h, 25 µM worked out at 99.6 ± 1.58%. In data set [6] (Vero-E6, 50 μM), the viability at 24 h, 50 µM was found to be 99.3 ± 2.02%. The viability at 24 h, 100 µM in data set [6] (Vero-E6, 100 μM) amounted to 98.9 ± 1.99%. The viability at 24 h, 200 µM in data set [6] (Vero-E6, 200 μM) amounted to 98.4 ± 2.15%. For the same compound, the viability at 24 h, 400 µM in data set [6] (Vero-E6, 400 μM) was found to be 98 ± 2.41%. The “cytotoxicity to Vero-E6 cells” value with Vero-E6 cells is reported as “not toxic”.

Turning to `NC(=O)C[C@H](NC(=O)[C@H](Cc1ccc(O)cc1)NC(=O)[C@H](CC(N)=O)NC(=O)[C@H](Cc1c[nH]c2ccccc12)NC(=O)[C@@H](N)Cc1c[nH]c2ccccc12)C(=O)O` [WWNYN, Trp-Trp-Asn-Tyr-Asn], the Inhibition rate at 2019-nCoV M-pro [1] (20 μM substrate, 2 nM M-pro) turned out to be 59.36%. Further, the IC50 against 2019-nCoV M-pro [1] (unit printed as M in text) worked out at 19.9 µM. For the same compound, the Inhibition mode entry on 2019-nCoV M-pro [2] is “competitive inhibition and 0-10 μM: competitive inhibition”; on 2019-nCoV M-pro [2] (setting [7]) it was “non-competitive inhibition and 20 μM: non-competitive inhibition”.
